Results of unrelated studies side by side (data: NIAID ChemDB).

Shared fields: toxicity to cultured cells; cells: HSB-2; endpoint: CC50

CCn is the concentration with n% toxicity to the cells.

smiles	method	value
O[C@@H]1[C@H](O)CO[C@H]1n1c(NC2CC2)nc2cc(Cl)c(Cl)cc21	ATP	>100 µM
OC[C@H]1O[C@@H](n2c(Br)nc3cc(Cl)c(Cl)cc32)[C@H](O)[C@@H]1O	neutral red	>104 µM
CC(C)Nc1nc2cc(Cl)c(Cl)cc2n1[C@@H]1O[C@@H](C)[C@@H](O)[C@H]1O	ATP	17 µM
O=C(NCc1ccc(Cl)cc1)c1cn2c(CCN3CCOCC3)cc3cc(CN4CCOCC4)cc(c1=O)c32	MTS	>17.9 µM
CCCCCOc1nc(N)nc2c1ncn2/C=C1/C[C@@H]1CO	-	>96 µM
Cc1cn([C@@H]2S[C@@H](CO)[C@@H](O)[C@H]2O)c(=O)[nH]c1=O	-	>100 µg/mL
CC(C)Nc1nc2cc(Cl)c(Cl)cc2n1[C@H]1O[C@@H](CO)[C@H](O)[C@@H]1O	-	>133 µM
O=C(O)P(=O)(O)O	-	1500 µM
Nc1ncnc2c1ncn2/C=C1/CC1(CO)CO	-	47 µM
CCCCCCCCCCCCCCCCCCOC[C@H](COP(=O)(O)CO[C@H](CO)Cn1ccc(N)nc1=O)OCc1ccccc1	-	>1 µM
CCCCCSc1nc(N)nc2c1ncn2/C=C1/C[C@@H]1CO	-	>156 µM
O=C(O)P(=O)(O)O	-	>166 µM
Nc1nc(NC2CC2)c2ncn(/C=C3/C[C@@H]3CO)c2n1	-	25.6 µM
O=c1[nH]c(=O)n([C@@H]2O[C@H](CO)[C@@H](O)[C@@H]2O)cc1/C=C/Br	-	100 µM
Cn1cc(C(=O)NCc2ccc(Cl)cc2)c(=O)c2cc(CN3CCOCC3)ccc21	MTS	>23.5 µM
OC[C@H]1CC(n2c(Br)nc3cc(Cl)c(Cl)cc32)[C@H](O)[C@@H]1O	ATP	25 µM
C=CCNc1nc(N)nc2c1ncn2/C=C1/C[C@@H]1CO	-	>184 µM
OC[C@@H]1O[C@@H](n2c(Br)nc3cc(Cl)c(Cl)cc32)[C@H](O)[C@H]1O	ATP	11 µM
CCCCCCCCCCCCOCCCOP(=O)(O)CO[C@H](CO)Cn1ccc(N)nc1=O	-	>1 µM
CC(C)Nc1nc2cc(Cl)c(Cl)cc2n1[C@@H]1OC[C@@H](O)[C@H]1O	ATP	28 µM
CCCCCCCCCCCCOCCCOP1(=O)CO[C@@H](Cn2ccc(N)nc2=O)CO1	-	>1 µM
Nc1nc2c(ncn2COC(CO)CO)c(=O)[nH]1	-	200 µM
C[C@H]1O[C@H](n2c(Br)nc3cc(Cl)c(Cl)cc32)[C@@H](O)[C@H]1O	ATP	15 µM
CCCCCCCC/C=C\CCCCCCCOCCCOP1(=O)CO[C@@H](Cn2ccc(N)nc2=O)CO1	-	>1 µM

A second listing of 2 rows from above:

CCCCCOc1nc(N)nc2c1ncn2/C=C1/C[C@@H]1CO ; value: >96 µM
Cc1cn([C@@H]2S[C@@H](CO)[C@@H](O)[C@H]2O)c(=O)[nH]c1=O ; value: >100 µg/mL

Rows are shuffled and stem from different studies. Blank or dashed fields: not listed here.